Measurements published in PMC11856326, “Structure-activity studies of bispyridinium antinicotinics to select candidates to treat soman intoxication as part of a combined therapy” (2025).
Entries after “also recorded” stand apart in the source; their conditions may differ. Not every entry of the source has a single result; some have several. Only these are listed. There may be further records. The records of an entry differ for a reason that is not stated; they may come from other doses, times, organisms or constructs than stated.

System: soman-poisoned guinea pig diaphragm
Assay: Diaphragm muscle assay: recovery of tetanic response in soman-poisoned phrenic nerve-hemidiaphragm
Settings: concentration-response curve, n = 4

SMILES: c1cc[n+](CCCCC[n+]2ccccc2)cc1
- recovery of the tetanic response over a broader concentration range: concentration-dependent recovery of the tetanic response up to 100 µM; also recorded: greatest at 100 and 300 µM and declined greatly at 1 mM
